# Reference: the supplement of paper PMC12637763
# Changes are numbered by the printed parent chain. The list shows a part of the results. Env chains of viruses from a treatment-interruption trial, translated from the printed DNA. IC50 / IC80 of two broadly neutralizing antibodies; lower = more sensitive virus; >50 µg/ml means not reached and <0.001 µg/ml is below the lowest dose. No active / inactive call.
# B1: HIV-1 Env, rebound clone, antibody arm (protein)
# chain: MKVMEIRKHSWRWGILFLGMLMICSAEDLWVTIYYGVPVWKEANTTLFCASDAKAYSTEKHNVWATHACVPTDPNPQEQNLVNVTEDFNMWKNNMVEQMHEDIISLWDQSLKPCVKLTPLCVTLECTDLRNATNTTATNTNNSLRDEGDMKNCSFNITTDRRDKVKKEYATFYNLDIVQIKEESNGNDSKIYRLVSCNTSVITQACPKISFEPIPIHYCAPAGFAILKCNDTDFNGIGTCRNVSIVQCTHGIRPVVSTQLLLNGSLAEKEVVIKSANFTDNTKTIIVQLKDPVEINCTRPNNNTRKGIHMGPGKAFYTVGQVIGDIRKAYCNIRWKKWNNTLGQIAKKLHDQYEMHNITFNRSSGGDPEIVTHSFNCGGEFFYCDTSGLFNSTWINGNWTNGTRIDTEGLNNGTFTLPCRIKQIINTWQEVGKAMYAPPIAGIIKCSTNITGLLLTRDGVNNSGHETFRPGGGDMRDNWRSELYKYKVVKLEPIGLAPTKAKRRVVQREKRAIGGIGALFLGFLGAAGSTMGAASLTLTVQARQLLSGIVQQQNNLLRAVEAQQHLLQLTVWGIKQLQARLLAVERFLHDQQLLGIWGCSGRLICTTAVPWNTSWSNKTLDRIWGNMTWMQWEREIENYTGLIYNLIEESQNQQENNEKELLALDKWANLWNWFDITKWLWYIKIFIMIVGGLIGVRIIFAVLSIVNRVRQGYSPLSFQTRLPTQRGPDRPEGIEEEGGERERDTSGSLATRLLAIIWIDLRSLCLFSYHRLRDLLLIAARIVELLGRRGWEILRYWWSLLQYWTQELKNSAVSLLNTTAVVVAEGTDRIIEAAQRAFRAFLNIPRRIRQGLERALL
# B2: HIV-1 Env, rebound clone, antibody arm (protein)
# chain: MRVRGMRKNWQDLWRWGIMLLGMLMICNATKNSWVTVYYGVPVWKEASTTLFCASDAKAYDTEVHNVWATHACVPTDPSPQEIKLENVTEEFNMWKNNMVEQMHEDIISLWDQSLKPCVKLTPLCVTLNCTEVVQNNTRQNNTIGEIKNCSFQVSTNLQDKTHKEYALFYKLDIVQLNKSDNISYRLISCNTSDLRQACPKVSFEPIPIHYCAPAGFAILKCNDTRFSGKGTCKNVTTIQCTHGIRPVVSTQLLLNGSLAEEGVVIRSDNISDNTKTIIVQLSKAVKINCTRPNNNTRKGIHIGPGRAFYATGKIIGDIRQAHCDLSGAEWNNTLSQIFEELKKEFKNKTIAFNQSSGGDLEIVLHSFNCGGEFFYCNTSKLFNSTWNSTWNNNSTRNNSEYTITLPCRIRQIINLWQEVGKAMYAPPIEGQIRCSSNITGLLLTRDGGDTNSTTEVFRPGGGNMKDNWRSELYKYKVVKIEPLGVAPTRAKRRMVQREKRAVGIGALFLGFLGAAGSTMGAASMTLTVQARQLLSGIVQQQNNLLRAIEAQQHLLQLTVWGIKQLQARVLAVERYLKDQQLLGIWGCSGKLICTTAVPWNTSWSNKSLDDIWNNMTWMQWEKEIDNYTGLIYSLIEKSQNQQEKNEKDLLELDKWASLWTWFDITNWLWYIRIVIMIVGGLVGLRIVFVVLSVVNRVRKGYSPLSFQTHHPVPGGPDRPAGIGEEGGDKDRDGSTRLVDGFLAIIWVDLRSLFLFSYHRLRDLLLIVTRIVELLGRRGWEALKYWWNLLQYWSQELKKSAVSLYDTIAIAVAEGTDRIIEAIQGTCRAILHIPRRIRQGLERLLL
# B3: HIV-1 Env, rebound clone, antibody arm (protein)
# chain: B2 chain with E345K, M495V, V675F
# Legend:
# antibody 10-1074 [1] = assay: neutralization IC50; higher = virus less sensitive to the antibody
# Description: (§1)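 Pseudovirus bearing the Env chain mixed with antibody, from 50 µg/ml in fivefold dilutions, on TZM-bl reporter cells, in duplicate.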
# antibody 3BNC117 [2] = assay: as above
# Description: as §1
# antibody 10-1074 [3] = assay: neutralization IC80; higher = virus less sensitive to the antibody
# Description: as §1
# antibody 3BNC117 [4] = assay: as above
# Description: as §1
Binder,neutralization IC50 (antibody 10-1074 [1]) [µg/mL],neutralization IC50 (antibody 3BNC117 [2]) [µg/mL],neutralization IC80 (antibody 10-1074 [3]) [µg/mL],neutralization IC80 (antibody 3BNC117 [4]) [µg/mL]
B1,> 50,0.122,> 50,0.517
B2,> 50,0.129,> 50,0.711
B3,> 50,0.028,> 50,0.076
